Results of unrelated studies side by side (data: NIAID ChemDB).

Common to all: tests in culture; organism: Mycobacterium avium complex; read-out: MIC

Lines come from different laboratories, so protocols vary.

structure | strain or isolate | read by | result
CN[C@@H]1[C@H](O[C@H]2[C@H](O[C@H]3[C@H](O)[C@@H](O)[C@H](N=C(N)N)[C@@H](O)[C@@H]3N=C(N)N)O[C@@H](C)[C@]2(O)C=O)O[C@@H](CO)[C@H](O)[C@H]1O | Isolate C-40 |  | 400 µg/mL
CC1CN(c2c(F)c(N)c3c(=O)c(C(=O)O)cn(C4CC4)c3c2F)CCN1C | PI12/39 |  | 0.5 µg/mL
C[C@@H]1CN(c2c(F)c(N)c3c(=O)c(C(=O)O)cn(C4CC4)c3c2F)C[C@H](C)N1 | 23 | broth dilution | 0.5 µg/mL
CC1COc2c(N3CCN(C)CC3)c(F)cc3c(=O)c(C(=O)O)cn1c23 | CIPT 14031006 |  | <1 µg/mL
NCC[C@H](O)C(=O)N[C@@H]1C[C@H](N)[C@@H](O[C@H]2O[C@H](CN)[C@@H](O)[C@H](O)[C@H]2O)[C@H](O)[C@H]1O[C@H]1O[C@H](CO)[C@@H](O)[C@H](N)[C@H]1O | 969/HIV- |  | <2 µg/mL
NCC[C@H](O)C(=O)N[C@@H]1C[C@H](N)[C@@H](O[C@H]2O[C@H](CN)[C@@H](O)[C@H](O)[C@H]2O)[C@H](O)[C@H]1O[C@H]1O[C@H](CO)[C@@H](O)[C@H](N)[C@H]1O | CH-2/HIV+ |  | 2.5 µg/mL
CCNCC1CN(c2c(F)cc3c(=O)c(C(=O)O)cn(C4CC4)c3c2F)CC1CNCC | 1915112 |  | 32 µg/mL
NC[C@@H]1O[C@H](O[C@H]2[C@@H](O)[C@H](O[C@@H]3[C@@H](O)[C@H](N)C[C@H](N)[C@H]3O[C@H]3O[C@H](CO)[C@@H](O)[C@H](O)[C@H]3N)O[C@@H]2CO)[C@H](N)[C@@H](O)[C@@H]1O | 535/HIV+ |  | 3.12 µg/mL
CO[C@H]1/C=C/O[C@@]2(C)Oc3c(C)c(O)c4c(O)c(c5c(c4c3C2=O)NC2(CCN(CC(C)C)CC2)N=5)=NC(=O)/C(C)=C\C=C\[C@H](C)[C@H](O)[C@@H](C)[C@@H](O)[C@@H](C)[C@H](OC(C)=O)[C@@H]1C | 3342-4 |  | 2 µg/mL
CO[C@H]1/C=C/O[C@@]2(C)Oc3c(C)c(O)c4c(O)c(c(/C=N/N5CCN(C)CC5)c(O)c4c3C2=O)NC(=O)/C(C)=C\C=C\[C@H](C)[C@H](O)[C@@H](C)[C@@H](O)[C@@H](C)[C@H](OC(C)=O)[C@@H]1C | 711/HIV- |  | 16 µg/mL
O=C(O)c1cn(C2CC2)c2c(F)c(N3CCS(=O)(=O)CC3)c(F)cc2c1=O | 1988557 |  | 4 µg/mL
CC[C@@H](CO)NCCN[C@@H](CC)CO | 3213 |  | 32 µg/mL
CCn1cc(C(=O)O)c(=O)c2cc(F)c(N3CCN(C)CC3)cc21 | CIPT 14031002 |  | 20 µg/mL
O=C(O)c1cn(C2CC2)c2c(F)c(N3CCSCC3)c(F)cc2c1=O | 1172733 |  | 8 µg/mL
CC1CN(c2cc3c(cc2F)c(=O)c(C(=O)O)cn3-c2ccc(F)cc2F)CCN1 | 3211 |  | 4 µg/mL
CC1CN(c2c(F)cc3c(=O)c(C(=O)O)cn(C4CC4)c3c2F)C(C)CN1 | 1172733 |  | 4 µg/mL
CO[C@H]1/C=C/O[C@@]2(C)Oc3c(C)c(O)c4c(O)c(c(/C=N/N5CCN(C/C=C/c6ccccc6)CC5)c(O)c4c3C2=O)NC(=O)/C(C)=C\C=C\[C@H](C)[C@H](O)[C@@H](C)[C@@H](O)[C@@H](C)[C@H](OC(C)=O)[C@@H]1C | SK-47 |  | 0.12 µg/mL
CC[C@H]1OC(=O)[C@H](C)[C@@H](O[C@H]2C[C@@](C)(OC)[C@@H](O)[C@H](C)O2)[C@H](C)[C@@H](O[C@@H]2O[C@H](C)C[C@H](N(C)C)[C@H]2O)[C@](C)(O)C[C@@H](C)C(=O)[C@H](C)[C@@H](O)[C@]1(C)O | 3216 |  | 32 µg/mL
CCN(CC)CC1CCN(c2c(F)cc3c(=O)c(C(=O)O)cn(C4CC4)c3c2F)C1 | 1172733 |  | 4 µg/mL

3 of the rows above, restated:

structure	strain or isolate	read by	result
CN[C@@H]1[C@H](O[C@H]2[C@H](O[C@H]3[C@H](O)[C@@H](O)[C@H](N=C(N)N)[C@@H](O)[C@@H]3N=C(N)N)O[C@@H](C)[C@]2(O)C=O)O[C@@H](CO)[C@H](O)[C@H]1O	Isolate C-40		400 µg/mL
NCC[C@H](O)C(=O)N[C@@H]1C[C@H](N)[C@@H](O[C@H]2O[C@H](CN)[C@@H](O)[C@H](O)[C@H]2O)[C@H](O)[C@H]1O[C@H]1O[C@H](CO)[C@@H](O)[C@H](N)[C@H]1O	CH-2/HIV+		2.5 µg/mL
CCN(CC)CC1CCN(c2c(F)cc3c(=O)c(C(=O)O)cn(C4CC4)c3c2F)C1	1172733		4 µg/mL

An empty or dashed field is not shown.